Results on 1 molecule are retold here after paper PMC4810223 (Toxins, 2016).

The chains behind the UniProt entries cited, without tags or fusion partners.
UniProt Q15858, whole entry: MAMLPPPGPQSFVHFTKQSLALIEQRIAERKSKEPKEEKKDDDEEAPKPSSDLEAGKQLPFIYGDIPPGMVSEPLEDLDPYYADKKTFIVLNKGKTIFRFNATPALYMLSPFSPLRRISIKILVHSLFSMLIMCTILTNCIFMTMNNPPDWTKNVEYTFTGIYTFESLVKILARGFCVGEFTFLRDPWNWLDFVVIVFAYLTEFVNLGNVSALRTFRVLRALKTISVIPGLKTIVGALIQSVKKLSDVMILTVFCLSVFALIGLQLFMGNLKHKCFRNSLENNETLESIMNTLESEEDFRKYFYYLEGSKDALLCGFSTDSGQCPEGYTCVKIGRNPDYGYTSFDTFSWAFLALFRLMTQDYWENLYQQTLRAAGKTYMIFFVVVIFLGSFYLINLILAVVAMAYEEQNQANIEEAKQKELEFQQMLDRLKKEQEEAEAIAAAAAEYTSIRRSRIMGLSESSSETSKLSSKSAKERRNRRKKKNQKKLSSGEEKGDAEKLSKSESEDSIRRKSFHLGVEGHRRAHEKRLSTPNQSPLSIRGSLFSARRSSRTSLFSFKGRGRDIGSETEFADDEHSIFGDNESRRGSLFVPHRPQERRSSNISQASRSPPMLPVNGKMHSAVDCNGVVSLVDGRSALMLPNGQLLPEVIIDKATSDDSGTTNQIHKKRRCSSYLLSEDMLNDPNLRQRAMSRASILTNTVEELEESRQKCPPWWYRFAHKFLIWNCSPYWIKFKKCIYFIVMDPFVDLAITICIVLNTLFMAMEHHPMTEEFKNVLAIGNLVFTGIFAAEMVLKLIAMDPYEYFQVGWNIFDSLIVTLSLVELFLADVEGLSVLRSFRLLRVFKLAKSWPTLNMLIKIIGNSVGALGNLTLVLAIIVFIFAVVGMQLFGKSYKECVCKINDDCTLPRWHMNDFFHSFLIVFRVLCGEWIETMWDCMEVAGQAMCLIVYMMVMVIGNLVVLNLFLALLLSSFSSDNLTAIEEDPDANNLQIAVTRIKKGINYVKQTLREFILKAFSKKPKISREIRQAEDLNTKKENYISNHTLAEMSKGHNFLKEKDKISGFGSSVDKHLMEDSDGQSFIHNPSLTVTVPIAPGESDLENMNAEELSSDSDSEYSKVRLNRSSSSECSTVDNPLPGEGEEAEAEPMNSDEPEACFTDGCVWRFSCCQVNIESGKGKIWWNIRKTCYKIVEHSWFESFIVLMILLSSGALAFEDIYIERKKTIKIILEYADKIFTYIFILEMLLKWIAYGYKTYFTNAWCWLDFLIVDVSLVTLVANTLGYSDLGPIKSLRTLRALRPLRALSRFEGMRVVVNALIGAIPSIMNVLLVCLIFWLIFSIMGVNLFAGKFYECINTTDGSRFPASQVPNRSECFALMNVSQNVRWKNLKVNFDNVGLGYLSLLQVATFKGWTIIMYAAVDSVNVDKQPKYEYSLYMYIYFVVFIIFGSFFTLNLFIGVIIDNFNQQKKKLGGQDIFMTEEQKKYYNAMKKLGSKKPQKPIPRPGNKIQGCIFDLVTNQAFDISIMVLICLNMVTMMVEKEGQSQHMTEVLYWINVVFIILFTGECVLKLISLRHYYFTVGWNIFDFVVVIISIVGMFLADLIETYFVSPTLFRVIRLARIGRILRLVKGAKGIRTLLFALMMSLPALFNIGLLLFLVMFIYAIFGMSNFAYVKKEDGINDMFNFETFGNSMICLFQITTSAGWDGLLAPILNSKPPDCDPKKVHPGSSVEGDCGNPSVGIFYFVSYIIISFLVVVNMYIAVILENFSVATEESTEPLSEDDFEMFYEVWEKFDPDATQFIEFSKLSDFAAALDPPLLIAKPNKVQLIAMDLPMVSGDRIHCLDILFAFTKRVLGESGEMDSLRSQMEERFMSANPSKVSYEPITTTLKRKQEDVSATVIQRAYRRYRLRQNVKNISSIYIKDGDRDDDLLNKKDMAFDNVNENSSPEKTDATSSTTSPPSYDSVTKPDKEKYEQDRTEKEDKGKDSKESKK

The test system of experiment [1] is OD1-induced spontaneous pain behaviors (NaV1.7-mediated pain). Briefly: Effect of inhibitors on OD1-induced spontaneous pain behaviors in mice. Particulars: control 105 ± 6.
In a further experiment the target is hNaV1.7 (Homo sapiens, UniProt Q15858). Briefly: Automated patch clamping (QPatch) in CHO cells heterologously expressing hNaV1.7. The conditions noted are these: OD1 300 nM, 8 s conditioning step of −55 mV; Figure S2. It counts as cell-based. For orientation: Patch clamp records ionic current or voltage across a cell membrane.

As to `Cn1nccc1-c1ccccc1Oc1ccc(S(=O)(=O)Nc2nccs2)cc1C#N`, the spontaneous pain behaviors in experiment [1] (intraperitoneal 30 mg/kg, 15 min prior to OD1) was 42 ± 8 behaviors/10 min; in experiment [1] (intraplantar 10 μM, co-injected with OD1 300 nM) it was 81 ± 12 behaviors/10 min; in experiment [1] (intraplantar 100 μM, co-injected with OD1 300 nM), 31 ± 8 behaviors/10 min; in experiment [1] (intraplantar 1 mM, co-injected with OD1 300 nM), 19 ± 6 behaviors/10 min. At hNaV1.7, the “effect on currents in the presence of OD1 (sample traces)” value was “inhibited peak current”.
